The text below walks through data of ChEMBL document CHEMBL3352719 (Bioorg Med Chem, 2014).

Assay [1] in a line: Antiviral activity against Influenza A virus A/WSN/1933(H1N1) harboring neuraminidase H275Y mutant infected in MDCK cells assessed as virus-mediated cytopathic effect after 48 hrs by CellTiter96 assay. On the technique in general: Protection from cytopathic effect is a common read-out in antiviral testing.
For assay [2], the target named is Neuraminidase (Influenza A virus (strain A/Wilson-Smith/1933 H1N1) (Influenza A virus(strain A/WS/1933 H1N1)), UniProt P03470, H275Y). Put plainly: Inhibition of Influenza A virus A/WSN/1933(H1N1) neuraminidase H275Y mutant using 2-(4-methylumbelliferyl)-alpha-D-N-acetylneuraminic acid after 15 mins by fluorescent assay.

For the compound `CCC(CC)O[C@@H]1C=C(C(=O)NOC)C[C@H](NC(=N)N)[C@H]1NC(C)=O`, the EC50 (usually the concentration that produces a half-maximal response) in assay [1] is 2.77 µM. Moreover, half-maximal inhibition in assay [2] (IC50) required 0.781 µM.
The corresponding values for `CCC(CC)O[C@@H]1C=C(C(=O)NOCCCc2cc3ccccc3[nH]2)C[C@H](N)[C@H]1NC(C)=O` are “Not Active” and 1.11 µM.
The corresponding values for `CCC(CC)O[C@@H]1C=C(C(=O)NS(=O)(=O)c2ccccc2)C[C@H](N)[C@H]1NC(C)=O` are “Not Active” and “Not Active”.
The corresponding values for `CCC(CC)O[C@@H]1C=C(C(=O)NS(=O)(=O)C(F)(F)F)C[C@H](NC(=N)N)[C@H]1NC(C)=O` are “Not Active” and 0.832 µM.
`CCC(CC)O[C@@H]1C=C(C(=O)NS(=O)(=O)c2ccccc2)C[C@H](NC(=N)N)[C@H]1NC(C)=O`: the EC50 result in assay [1] was “Not Active”. For the same compound, the midpoint of inhibition in assay [2], the IC50, lay at 13.4 µM.
Taken in the same sequence, the figures for `CCC(CC)O[C@@H]1C=C(C(=O)NS(C)(=O)=O)C[C@H](N)[C@H]1NC(C)=O` were “Not Active” and 19.1 µM.
Taken in the same sequence, the figures for `CCC(CC)O[C@@H]1C=C(C(=O)NO)C[C@H](N)[C@H]1NC(C)=O` were “Not Active” and “Not Active”.
`CCC(CC)O[C@@H]1C=C(C(=O)O)C[C@H](N)[C@H]1NC(C)=O` [OSELTAMIVIR CARBOXYLATE]: the EC50 in assay [1] amounted to 11 µM.
Turning to `CCC(CC)O[C@@H]1C=C(C(=O)NOCc2ccccc2)C[C@H](N)[C@H]1NC(C)=O`, the EC50 entry in assay [1] is on record as “Not Active”. For the same compound, it took 1.01 µM to reach half-maximal inhibition in assay [2] (IC50).
Taken in the same sequence, the figures for `CCCCS(=O)(=O)NC(=O)C1=C[C@@H](OC(CC)CC)[C@H](NC(C)=O)[C@@H](N)C1` were “Not Active” and “Not Active”.
As to `CCCCS(=O)(=O)NC(=O)C1=C[C@@H](OC(CC)CC)[C@H](NC(C)=O)[C@@H](NC(=N)N)C1`, in assay [1], the EC50 entry is listed as “Not Active”. Moreover, the IC50 (in general, the concentration that gives 50% inhibition) in assay [2] was determined as 1.11 µM.
Taken in the same sequence, the figures for `CCC(CC)O[C@@H]1C=C(C(=O)NS(C)(=O)=O)C[C@H](NC(=N)N)[C@H]1NC(C)=O` were 6.9 µM and 0.0195 µM.
Taken in the same sequence, the figures for `CCC(CC)O[C@@H]1C=C(C(=O)NOCCCc2cc3ccccc3[nH]2)C[C@H](NC(=N)N)[C@H]1NC(C)=O` were 2.27 µM and 1.23 µM.
The corresponding values for `CCC(CC)O[C@@H]1C=C(C(=O)NS(=O)(=O)C(F)(F)F)C[C@H](N)[C@H]1NC(C)=O` are “Not Active” and “Not Active”.
With `CCC(CC)O[C@@H]1C=C(C(=O)NOC)C[C@H](N)[C@H]1NC(C)=O`, the EC50 result in assay [1] was “Not Active”. In assay [2], this compound returned an IC50 of 6.65 µM.
Regarding `CCC(CC)O[C@@H]1C=C(C(=O)NOCc2ccccc2)C[C@H](NC(=N)N)[C@H]1NC(C)=O`, in assay [1], the EC50 was 16.1 µM. Moreover, the IC50 in assay [2] was 6.95 µM.
